Results of unrelated studies side by side (data: NIAID ChemDB).

Shared fields: growth or infection tests; organism: Hepatitis B virus; endpoint: EC50

Blank or dashed fields: not listed here. a–b is a range or a potency band. Neighbouring rows are from separate reports. ECn: concentration that inhibits the pathogen or its effect by n%.

SMILES	cell line	method	mutations	strain or isolate	value
O=C(c1ccc(Br)c(Cl)c1)N1CCc2c(n3ncc(Cc4ccccc4)c3n(-c3ccc(-n4ccc(C(F)(F)F)n4)cc3)c2=O)C1	HepG2.117	luminescence	-	-	0.05–0.5 µM
Cc1cc(NC(=O)c2c3c(cn2C)S(=O)(=O)NC2(C)CN(C(=O)C(=O)NC4CC4)CC2CO3)ccc1F	HepAD38	PCR	-	-	<0.5 µM
COCCn1cc(COc2cc3c(cc2Cl)-c2c(cc(C(=O)O)c(=O)n2C2CC2)CS3(=O)=O)cn1	Primary human hepatocytes	antigen / visual reading / absorbance	-	-	0.05–0.1 µM
Cc1n[nH]nc1-c1ccc(-n2c(=O)c3c(n4ncc(CC(C)C)c24)CN(C(=O)c2ccc(Br)c(C(F)(F)F)c2)[C@H](C)C3)cc1	HepG2.117	luminescence	-	-	≤0.05 µM
C[C@@H](NC(=O)C(=O)N1CCC2(COc3c(c(Cl)n(C)c3C(=O)Nc3ccc(F)c(Cl)c3)S(=O)(=O)N2)C1)C(F)(F)F	HepAD38	PCR	-	Genotype D	<0.5 µM
Cn1nc2cc(NS(=O)(=O)c3cnn(-c4cccc(F)c4F)c3)ccc2c1C(=O)Nc1ccc(F)c(Cl)c1	HepAD38	PCR	-	-	<100 µM
Cc1cc(NC(=O)c2c3c(cn2C)S(=O)(=O)N[C@H]2CN(C(=O)C(=O)NC4(C)COC4)C[C@H]2CO3)ccc1F	HepAD38	PCR	-	-	<0.5 µM
Cn1cc2c(c1C(=O)Nc1ccc(F)c(C(F)F)c1)OC[C@@]1(CCN(C(=O)C(=O)NC(C)(C)C(F)(F)F)C1)NS2(=O)=O	HepAD38	PCR	-	Genotype D	<0.5 µM
Cc1n[nH]nc1-c1ccc(-n2c(=O)c3c(n4ncc(CC(C)C)c24)CN(C(=O)c2ccc(Br)c(Cl)c2)[C@H](C)C3)cc1	HepG2.117	luminescence	-	-	≤0.05 µM
Cn1cc2c(c1C(=O)Nc1ccc(F)c(Cl)c1)OCC1(CN(C(=O)C(=O)N3CC(F)(F)C3)C1)NS2(=O)=O	HepAD38	PCR	-	Genotype D	<0.5 µM
Cn1nc2cc(NS(=O)(=O)NCC3CC3)ccc2c1C(=O)Nc1ccc(F)c(Cl)c1	HepAD38	PCR	-	-	100–1000 µM
Cc1cc(NC(=O)c2c3c(cn2C)S(=O)(=O)NC2CN(C(=O)C(=O)N[C@H](C)C(F)(F)F)CC2(C)CO3)ccc1F	HepAD38	PCR	-	-	<0.5 µM
C[C@H]1Cc2c(n3ncc(Cc4ccccc4)c3n(-c3ccc(-c4nncn4C)cc3)c2=O)CN1C(=O)c1ccc(Br)c(C(F)(F)F)c1	HepG2.117	luminescence	-	-	0.05–0.5 µM
Cn1cc(S(=O)(=O)CNc2ccc3c(C(=O)Nc4ccc(F)c(Cl)c4)n(C)nc3c2)cn1	HepAD38	PCR	-	-	100–1000 µM
CCOC(=O)C1=C(CN2CC(F)(F)[C@H]3[C@@H]2CCN3C[C@@H](O)C(C)(C)C(=O)O)NC(c2nccs2)=N[C@H]1c1cccc(F)c1C	HepG2.2.15	PCR	-	-	0.001 µM
C[C@H](Oc1ccc([C@H](C)NC(=O)c2c3n(c(=O)n2-c2ccc(OC4CC4)cc2)CCN(C(=O)c2ccc(Br)c(Cl)c2)C3)c(F)c1)C(N)=O	HepG2.117	PCR	-	-	<0.1 µM
Cn1nc2ccc(NC(=O)OCc3cccc(F)c3)cc2c1C(=O)Nc1ccc(F)c(Cl)c1	HepAD38	PCR	-	-	>1000 µM
C#CC1(NC(=O)C(=O)c2c(C)c(C(=O)Nc3ccc(F)c(C#N)c3)n(C)c2C)CCOCC1	HepG2.2.15	PCR	-	-	0.001–0.0099 µM
CNc1n[nH]c2cc(-n3c(=O)c4c(n5ncc(Cc6ccccc6)c35)CN(C(=O)c3ccc(Br)c(C(F)(F)F)c3)[C@@H](C)C4)ccc12	HepG2.117	luminescence	-	-	≤0.05 µM
CN(CC1CC1)S(=O)(=O)Nc1ccc2c(C(=O)Nc3ccc(F)c(Cl)c3)n(C)nc2c1	HepAD38	PCR	-	-	100–1000 µM
C[C@H](Oc1ccc([C@@H](C)NC(=O)c2c3n(c(=O)n2-c2ccc(OCC(F)(F)F)cc2)CCN(C(=O)c2ccc(Br)c(Cl)c2)C3)c(F)c1)C(N)=O	HepG2.117	PCR	-	-	0.5–5 µM
C[C@@H](NC(=O)C(=O)N1C[C@H]2COc3c(cn(C)c3C(=O)Nc3ccc(F)c(F)c3)S(=O)(=O)N[C@H]2C1)C(F)(F)F	HepAD38	PCR	-	-	<0.5 µM
COCCCOc1cc2c(cc1Cl)-c1c(cc(C(=O)O)c(=O)n1C1CC1)C(C)S2(=O)=O	Primary human hepatocytes	antigen / visual reading / absorbance	-	-	0.1–0.5 µM
CCC(O)CNC(=O)c1ccc2c(C(=O)Nc3ccc(F)c(Cl)c3)n(C)nc2c1	HepAD38	PCR	-	-	>1000 µM
Cc1c(C(=O)C(=O)NCC#CC2CC2)c(C)n(C)c1C(=O)Nc1ccc(F)c(C#N)c1	HepG2.2.15	PCR	-	-	0.001–0.0099 µM
COc1ccc(-n2c(C(=O)Nc3ccc(OC)cc3OC)c3n(c2=O)CCN(C(=O)c2ccc(Br)c(Cl)c2)C3)cc1	HepG2.117	PCR	-	-	<0.1 µM
Cn1nc2ccc(NC(=O)OCc3ccccc3)cc2c1C(=O)Nc1ccc(F)c(Cl)c1	HepAD38	PCR	-	-	>1000 µM
Cc1cnn(-c2ccc(-n3c(=O)c4c(n5ncc(Cc6ccccc6)c35)CN(C(=O)c3ccc(Br)c(C(F)(F)F)c3)[C@@H](C)C4)cc2)n1	HepG2.117	luminescence	-	-	0.05–0.5 µM
C[C@H](NC(=O)C(=O)N1CC[C@]2(COc3c(cn(C)c3C(=O)Nc3ccc(F)c(C(F)F)c3)S(=O)(=O)N2)C1)C(F)(F)F	HepAD38	PCR	-	Genotype D	<0.5 µM
C[C@H]1Cc2c(n3ncc(Cc4ccccc4)c3n(-c3ccc(-n4nnnc4C(F)(F)F)cc3)c2=O)CN1C(=O)c1ccc(Br)c(C(F)(F)F)c1	HepG2.117	luminescence	-	-	>5 µM
O=C(NCc1ccccc1)c1c2n(c(=O)n1-c1ccc(N3CCOCC3)cc1)CCN(C(=O)c1ccc(Br)c(Cl)c1)C2	HepG2.117	PCR	-	-	0.1–0.5 µM
CN(Cc1ccccn1)S(=O)(=O)Nc1ccc2c(C(=O)Nc3ccc(F)c(Cl)c3)n(C)nc2c1	HepAD38	PCR	-	-	100–1000 µM
CCOC(=O)C1=C(CN2CC(F)(F)[C@@H]3[C@H]2CON3C[C@H](O)[C@H](CC)C(=O)O)NC(c2nccs2)=N[C@H]1c1cccc(F)c1C	HepG2.2.15	PCR	-	-	0.057 µM
Cc1nc(-c2ccc(-n3c(=O)c4c(n5ncc(CC(C)C)c35)CN(C(=O)c3ccc(Br)c(Cl)c3)[C@@H](C)C4)cc2)n[nH]1	HepG2.117	luminescence	-	-	0.05–0.5 µM
CN(C)C(=O)C(=O)N1CC2COc3c(cn(C)c3C(=O)Nc3cc(F)c(F)c(F)c3)S(=O)(=O)NC2C1	HepAD38	PCR	-	-	<0.5 µM
CCOC(=O)C1=C(CN2CC(F)(F)[C@@H]3[C@H]2CON3C[C@H](OC)C(C)(C)C(=O)O)NC(c2nccs2)=N[C@@H]1c1ccc(F)c(F)c1C	HepG2.2.15	PCR	-	-	0.001 µM
C#C[C@H](NC(=O)C(=O)c1c(C)c(C(=O)Nc2ccc(F)c(C#N)c2)n(C)c1C)C1COC1	HepG2.2.15	PCR	-	-	<0.001 µM
Cc1n[nH]nc1-c1ccc(-n2c(=O)c3c(n4ncc(CC(C)C)c24)CN(C(=O)c2ccc(Br)c(Cl)c2)[C@@H](C)C3)cc1	HepG2.117	luminescence	-	-	0.05–0.5 µM
O=C(O)c1cc2c(n(C3CC3)c1=O)-c1cc(Cl)c(OC3CCOCC3)cc1S(=O)(=O)C2	Primary human hepatocytes	antigen / visual reading / absorbance	-	-	0.1–0.5 µM
CCOC(=O)C1=C(CN2CC(F)(F)[C@H]3[C@@H]2CCN3C[C@H](F)C(C)(C)C(=O)O)NC(c2nc(C)cs2)=N[C@H]1c1cccc(F)c1C	HepG2.2.15	PCR	-	-	0.0045 µM
Cc1cc(NC(=O)c2c3c(cn2C)S(=O)(=O)N[C@H]2CN(C(=O)C(=O)N[C@H](C)C(F)(F)F)C[C@H]2CO3)ccc1F	HepG2	PCR	L37Q	-	0.00872 µM
COCCCOc1cc2c(cc1C(F)(F)F)-c1c(cc(C(=O)O)c(=O)n1C1CC1)CS2(=O)=O	Primary human hepatocytes	antigen / visual reading / absorbance	-	-	0.05–0.1 µM
Cn1cc2c(c1C(=O)Nc1ccc(F)c(Cl)c1)OC[C@]1(CCN(C(=O)C(=O)NC(C)(C)C(F)(F)F)C1)NS2(=O)=O	HepAD38	PCR	-	Genotype D	<0.5 µM
CCOC(=O)C1=C(CN2CC(F)(F)[C@H]3[C@@H]2CCN3C[C@@H](F)C(C)(C)C(=O)O)NC(c2nc(C)cs2)=N[C@H]1c1cccc(F)c1Cl	HepG2.2.15	PCR	-	-	0.001 µM
C#C[C@](C)(CO)NC(=O)C(=O)c1c(C)c(C(=O)Nc2ccc(F)c(C#N)c2)n(C)c1C	HepG2.2.15	PCR	-	-	0.001–0.0099 µM
C[C@@H](NC(=O)C(=O)N1C[C@H]2COc3c(c(Cl)n(C)c3C(=O)Nc3ccc(F)c(C(F)(F)F)c3)S(=O)(=O)N[C@H]2C1)C(F)(F)F	HepAD38	PCR	-	-	<0.5 µM
COC(=O)C1=C(CN2CC(F)(F)[C@@H]3[C@H]2CON3C[C@H](O)C(C)(C)C(=O)O)NC(c2nccs2)=N[C@H]1c1ccc(F)cc1Cl	HepG2.2.15	PCR	-	-	0.167 µM
COc1ccc(CNC(=O)c2c3n(c(=O)n2-c2ccc(OC(C)C)cc2)CCN(C(=O)c2ccc(Br)c(Cl)c2)C3)c(F)c1	HepG2.117	PCR	-	-	<0.1 µM
COC(=O)C1=C(CN2CC(F)(F)[C@H]3[C@@H]2CCN3CC[C@](C)(O)C(=O)O)NC(c2nccs2)=N[C@H]1c1ccc(F)c(F)c1Cl	HepG2.2.15	PCR	-	-	0.028 µM
COCCCOc1cc2c(cc1Cl)-c1c(cc(C(=O)O)c(=O)n1C1CC(F)(F)C1)CS2(=O)=O	Primary human hepatocytes	antigen / visual reading / absorbance	-	-	>0.5 µM
Cn1cc(NS(=O)(=O)c2ccc3c(C(=O)Nc4ccc(F)c(Cl)c4)n(C)nc3c2)cn1	HepAD38	PCR	-	-	100–1000 µM
COCCCOc1cc2c(cc1Cl)-c1c(cc(C(=O)O)c(=O)n1C1CCC1)C(C)S2	Primary human hepatocytes	antigen / visual reading / absorbance	-	-	0.1–0.5 µM
CC(C)Oc1ccc(-n2c(C(=O)NCc3ccccc3)c3n(c2=O)CCN(C(=O)c2ccc(Br)c(C#N)c2)C3)cc1	HepG2.117	PCR	-	-	0.5–5 µM
CCOC(=O)C1=C(CN2CC(F)(F)[C@@H]3[C@H]2CON3C[C@@H](F)C(C)(C)C(=O)O)NC(c2nccs2)=N[C@H]1c1cccc(F)c1Cl	HepG2.2.15	PCR	-	-	0.003 µM
O=C(NCc1ccccc1)c1c2n(c(=O)n1-c1ccc3occc3c1)CCN(C(=O)c1ccc(Cl)c(Cl)c1)C2	HepG2.117	PCR	-	-	0.5–5 µM
COCCCOc1cc2c(cc1C1CC1)-c1c(cc(C(=O)O)c(=O)n1C1CC1)C(C)S2(=O)=O	Primary human hepatocytes	antigen / visual reading / absorbance	-	-	0.1–0.5 µM
C#CC1(NC(=O)C(=O)c2c(C)c(C(=O)Nc3ccc(Cl)c(Br)c3)n(C)c2C)CC(F)(F)C1	HepG2.2.15	PCR	-	-	0.001–0.0099 µM
CCOc1cc2c(cc1Cl)-c1c(cc(C(=O)O)c(=O)n1C1CC1)C(C)S2(=O)=O	Primary human hepatocytes	antigen / visual reading / absorbance	-	-	0.05–0.1 µM
C#C[C@@H](CCO)NC(=O)C(=O)c1c(C)c(C(=O)Nc2ccc(F)c(C#N)c2)n(C)c1C	HepG2.2.15	PCR	-	-	0.001–0.0099 µM
C[C@H](NC(=O)C1C2CN(C(=O)c3ccc(Br)c(Cl)c3)CCN2C(=O)N1c1ccc(OC2CC2)cc1)c1ccccc1	HepG2.117	PCR	-	-	0.1–0.5 µM
CC1(COc2cc3c(cc2Cl)-c2c(cc(C(=O)O)c(=O)n2C2CC2)CS3(=O)=O)CCO1	Primary human hepatocytes	antigen / visual reading / absorbance	-	-	0.1–0.5 µM

The first 6 rows once more:

{"SMILES": "O=C(c1ccc(Br)c(Cl)c1)N1CCc2c(n3ncc(Cc4ccccc4)c3n(-c3ccc(-n4ccc(C(F)(F)F)n4)cc3)c2=O)C1", "cell line": "HepG2.117", "method": "luminescence", "value": "0.05–0.5 µM"}
{"SMILES": "Cc1cc(NC(=O)c2c3c(cn2C)S(=O)(=O)NC2(C)CN(C(=O)C(=O)NC4CC4)CC2CO3)ccc1F", "cell line": "HepAD38", "method": "PCR", "value": "<0.5 µM"}
{"SMILES": "COCCn1cc(COc2cc3c(cc2Cl)-c2c(cc(C(=O)O)c(=O)n2C2CC2)CS3(=O)=O)cn1", "cell line": "Primary human hepatocytes", "method": "antigen / visual reading / absorbance", "value": "0.05–0.1 µM"}
{"SMILES": "Cc1n[nH]nc1-c1ccc(-n2c(=O)c3c(n4ncc(CC(C)C)c24)CN(C(=O)c2ccc(Br)c(C(F)(F)F)c2)[C@H](C)C3)cc1", "cell line": "HepG2.117", "method": "luminescence", "value": "≤0.05 µM"}
{"SMILES": "C[C@@H](NC(=O)C(=O)N1CCC2(COc3c(c(Cl)n(C)c3C(=O)Nc3ccc(F)c(Cl)c3)S(=O)(=O)N2)C1)C(F)(F)F", "cell line": "HepAD38", "method": "PCR", "strain or isolate": "Genotype D", "value": "<0.5 µM"}
{"SMILES": "Cn1nc2cc(NS(=O)(=O)c3cnn(-c4cccc(F)c4F)c3)ccc2c1C(=O)Nc1ccc(F)c(Cl)c1", "cell line": "HepAD38", "method": "PCR", "value": "<100 µM"}